From patent US10501493B2, “Broad spectrum antibiotics” (priority 2011, dated 2019)

The chains behind the UniProt entries cited, without tags or fusion partners.
UniProt P00803, whole entry: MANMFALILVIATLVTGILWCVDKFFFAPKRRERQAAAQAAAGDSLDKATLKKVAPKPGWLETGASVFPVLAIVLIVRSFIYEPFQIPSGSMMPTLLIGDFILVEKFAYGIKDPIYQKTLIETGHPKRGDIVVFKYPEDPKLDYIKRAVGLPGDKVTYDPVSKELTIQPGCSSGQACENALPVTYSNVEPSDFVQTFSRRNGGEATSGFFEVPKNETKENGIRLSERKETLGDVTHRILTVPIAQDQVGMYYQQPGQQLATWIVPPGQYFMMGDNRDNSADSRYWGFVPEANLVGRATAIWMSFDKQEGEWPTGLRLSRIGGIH
UniProt P0A070, whole entry: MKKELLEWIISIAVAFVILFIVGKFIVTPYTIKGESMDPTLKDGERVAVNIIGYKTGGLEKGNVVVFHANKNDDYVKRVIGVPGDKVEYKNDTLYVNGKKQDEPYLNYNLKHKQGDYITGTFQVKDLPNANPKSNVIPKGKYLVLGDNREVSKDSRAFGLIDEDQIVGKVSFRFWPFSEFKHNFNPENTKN

Columns and labels:
[1] = test system: S. aureus NCTC-8325 SpsB(P295); experiment: In vitro antimicrobial activity, MIC by broth micro-dilution; assay type: cell-based
Description: (§1) In vitro antimicrobial activity of each compound was determined by measuring minimal inhibitor concentrations (MICs) using the broth micro-dilution technique as approved by the Clinical and Laboratory Standards Institute (CLSI). The microbiological panel examined contains a number of bacterial species including E. coli MG1655, P. aeruginosa, S. aureus, and S. epidermidis. In addition, the panel includes previously described pseudo-isogenic strains of these four species (P. A. Smith et al. Chem Biol 2010, 1223-1231), in which a specific proline residue in SPase (called LepB in Gram-negative organisms an SpsB in Gram-positive organisms) has been mutated to a different amino acid. The resulting strains have increased susceptibility to the arylomycin class of antibiotics. Analysis of the strains lacking this proline residue will increases the dynamic range of the assay, and comparison of the sensitivities of the isogenic pairs provides ongoing confirmation that the activity gained through derivatization is specific to the inhibition of SPase. Briefly, bacterial streaks were grown on Mueller Hinton Agar II (Difco™) with or without 5% lysed horse blood for a period of 24 hours at either 35° C. or 28° C. Bacterial colonies were suspended in cation adjusted Mueller Hinton broth and diluted to a final concentration of 1*10^7 colony forming units/ml. Two-fold serial dilutions of each compound were arrayed into 96-well plates (100 μl final volume per well) and 5 ul of the bacterial suspension will be added. […] MICs were periodically checked plating serial dilutions of MIC wells and quantitatively determining viable colonies.

[2] = test system: S. epidermidis RP62A; experiment: as above; assay type: cell-based
Description: as §1

[3] = test system: S. pneumoniae D39; experiment: as above; assay type: cell-based
Description: as §1

[4] = test system: E. col ATCC 25922 LepB(P84L); experiment: as above; assay type: cell-based, E. coli
Description: as §1, with “C.” for “C. Bacterial colonies were suspended in cation adjusted Mueller Hinton broth and diluted to a final concentration of 1*10^7 colony forming units/ml. Two-fold serial dilutions of each compound were arrayed into 96-well plates (100 μl final volume per well) and 5 ul of the bacterial suspension will be added.”

[5] = test system: S. aurues NCTC-8325; experiment: as above; assay type: cell-based, S. aureus
Description: as §1, with “C.” for “C. Bacterial colonies were suspended in cation adjusted Mueller Hinton broth and diluted to a final concentration of 1*10^7 colony forming units/ml. Two-fold serial dilutions of each compound were arrayed into 96-well plates (100 μl final volume per well) and 5 ul of the bacterial suspension will be added.”

[6] = target: E. coli SPase (Escherichia coli, UniProt P00803); experiment: Enzymatic fluorogenic substrate cleavage assay for IC50; assay type: biochemical; conditions: read-out: IC50 class E. coli SPase; fluorogenic peptide cleavage
Description: (§2) Full length His-tagged E. coli SPase proteins were expressed in E. coli BL21(DE3) containing the plasmid pET23-lepB, P. A. Smith et al. Chem Biol 2010, 1223-1231. Briefly, saturated overnight cultures grown in 20 ml of Luria-Bertani medium supplemented with ampicillin were subcultures into 1.5 L of Luria-Bertani, and shaken at 37° C. until an optical density at 600 nm of 0.4-0.5 was achieved. Protein expression was induced with Isopropyl β-D-1-thiogalactopyranoside (ITPG) at a final concentration of […], and purified using nickel affinity chromatography. Full length His-tagged S. aureus SPase protein was expressed similarly from E. coli BL21(DE3) containing the plasmid pCDF1-SaSpsB or pCDF1-SaSpsB(P29S) and purified similarly to the E. coli protein with the following exceptions. SPase protein was solubilized using 300 mM NaCl, 20 mM Tris pH 8.06, 5 mM Imidazole, 10% glycerol, 1% Triton X-100, prior to purification in Ni-NTA Superflow resin and resin bound protein was washed in a similar buffer containing 1% Elugent in place of Triton X-100 prior to protein eluted in wash buffer supplemented with 300 mM imidazole. Protein purify was judged to exceed 95% by visual inspection of SDS-PAGE followed by Comassie staining. All protein concentrations were determined by BCA assay.
(§3) In addition to the equilibrium binding assays, compound activity is also characterized by measuring inhibition of E. coli and S. aureus substrate cleavage reactions using fluorogenic peptides developed at RQx Pharmaceuticals. Briefly, two fluorogenic peptide substrates (decanoyl-LSSPA Y^NO2 A ? ADK^abzPD (SEQ ID NO: 1) and decanyol-LTPTAY^NO2 A ? ASKK^abzDD (SEQ ID NO: 2)) have been synthesized, where abz is the fluorescence donor 2-aminobenzamide, YNO2 is the fluorescence acceptor 3-nitrotyrosine, and the cleavage site is indicated with an arrow. These substrates are processed with a second order rate constant (Kcat/KM) of 10^5 M^−1s^−1 for E. coli and S. aureus SPase enzymes, and cleavage results in a greater than 10-fold increase in fluorescence signal (excitation at 314 nm, emission at 416 nm) as measured using a SpectraMax M2 fluorescence microplate reader. […] The increase in fluorescence, corresponding to substrate cleavage, is monitored continuously at room temperature for 30 minutes and initial reaction rates are calculated based in the linear increase in fluorescence from the initial 30 minutes of the reaction. Reaction rates are plotted as a function of compound concentration, and IC50 values are determined nonlinear regression analysis (SoftMax® Pro v5.4) of the sigmoidal dose-response curve.

[7] = target: S. aureus SPase (Staphylococcus aureus, UniProt P0A070); experiment: as above; assay type: biochemical; conditions: read-out: IC50 class S. aureus SPase; fluorogenic peptide cleavage
Description: as §2, §3

[8] = test system: E. coli ATCC 25922; experiment: In vitro antimicrobial activity, MIC by broth micro-dilution; assay type: cell-based
Description: as §1

Structure (SMILES) | MIC class, S. aureus NCTC-8325 SpsB(P295) [1] | MIC class, S. epidermidis RP62A [2] | MIC class, S. pneumoniae D39 [3] | MIC class, E. col ATCC 25922 LepB(P84L) [4] | MIC class, S. aurues NCTC-8325 [5] | IC50 [6] | IC50 [7] | MIC class, E. coli ATCC 25922 [8]
CCCCCCCCCCCCCCCC(=O)N(C)[C@H](CO)C(=O)N[C@H](C)C(=O)N[C@H](C)C(=O)N(C)[C@@H]1C(=O)N[C@@H](C)C(=O)N[C@H](C(=O)O)Cc2ccc(O)c(c2)-c2cc1ccc2O | b (MIC 16-64 μg/ml) | b (MIC 16-64 μg/ml) | b (MIC 16-64 μg/ml) | a (MIC >64 μg/ml) | a (MIC >64 μg/ml) | 1000 to 10000 nM | 1000 to 10000 nM | 
CCCCCCCCCCCCCCNC(=O)N[C@H](CO)C(=O)N[C@H](C)C(=O)NCC(=O)N(C)[C@@H]1C(=O)N[C@@H](C)C(=O)N[C@H](C(=O)O)Cc2ccc(O)c(c2)-c2cc1ccc2O | a (MIC >64 μg/ml) | c (MIC ≤8 μg/ml) | a (MIC >64 μg/ml) | c (MIC ≤8 μg/ml) | a (MIC >64 μg/ml) | < 1000 nM | < 1000 nM | a (MIC >64 μg/ml)
